Anti-infective test results gathered from many reports (values: NIAID ChemDB through PubChem).

All rows: cytotoxicity tests; cells: CEM; read by: cell count; read-out: CC50

Rows are shuffled and stem from different studies. CCn is the concentration with n% toxicity to the cells.

smiles | result
CCCCCCCCCCCCCCCCCCNCc1c(O)cc2c(c1O)-c1cc(ccc1O)[C@H]1NC(=O)[C@@H]3NC(=O)[C@H]4NC(=O)[C@@H](Cc5ccc(c(Cl)c5)Oc5cc3cc(c5O)Oc3ccc(cc3Cl)[C@@H](O)[C@H](NC1=O)C(=O)N[C@@H]2C(=O)O)NC(=O)[C@H](N)c1ccc(O)c(c1)Oc1cc(O)cc4c1 | 22 µM
NC/C=C/Cn1cnc2c(N)ncnc21 | 3.1 µM
COc1ccc(CS(=O)c2cccc[n+]2[O-])cc1OC | 1.3 µg/mL
N[C@H]1C(=O)N[C@@H]2Cc3ccc(c(Cl)c3)Oc3cc4cc(c3O)Oc3ccc(cc3Cl)[C@@H](O)[C@@H]3NC(=O)[C@H](NC(=O)[C@@H]4NC(=O)[C@@H](NC2=O)c2cc(O)cc(c2)Oc2cc1ccc2O)c1ccc(O)c(c1)-c1c(cc(O)c(CNC2C4CC5CC(C4)CC2C5)c1O)[C@@H](C(=O)O)NC3=O | >250 µM
NC/C=C/Cn1cc(F)c(=O)[nH]c1=O | 12.6 µM
C#C[C@@]1(CO)C=C[C@H](n2cc(C)c(=O)[nH]c2=O)O1 | >100 µM
COc1ccc(CS(=O)c2cccc[n+]2[O-])cc1 | 2.1 µg/mL
O=C1c2ccccc2C(=O)N1C/C=C/Cn1cc(F)c(=O)[nH]c1=O | >50 µM
Cc1ccc(C)c(CS(=O)(=O)c2ncccc2O)c1 | >100 µg/mL
CN[C@H](CC(C)C)C(=O)N[C@H]1C(=O)N[C@@H](CC(N)=O)C(=O)N[C@H]2C(=O)N[C@H]3C(=O)N[C@H](C(=O)N[C@H](C(=O)O)c4cc(O)cc(O)c4-c4cc3ccc4O)[C@H](O[C@H]3C[C@](C)(N)[C@@H](O)[C@H](C)O3)c3ccc(cc3)Oc3cc2cc(c3OC2O[C@H](CO)[C@@H](O)[C@H](O)[C@H]2O[C@H]2C[C@](C)(N)[C@@H](O)[C@H](C)O2)Oc2ccc(cc2Cl)[C@H]1O | >500 µM
O=C1c2ccccc2C(=O)N1CC1OC1CCl | >50 µM
CCCCCCCCCCCC(c1cc(C)ccc1C)S(=O)(=O)c1cccc[n+]1[O-] | 88 µg/mL
COC(=O)[C@H]1NC(=O)[C@H]2NC(=O)[C@H](NC(=O)[C@H](NC(=O)OC(C)(C)C)c3cc(Oc4ccc(C[C@@H](NC(=O)OCc5ccccc5)C(=O)O)cc4Cl)c(O)c(c3)Oc3ccc(cc3Cl)[C@H]2O)c2ccc(O)c(c2)-c2c(O)cc(O)cc21 | >250 µM
CC(C)c1ccc(C(C)C)c(CS(=O)(=O)c2cccc[n+]2[O-])c1 | 6.4 µg/mL
O=C1c2ccccc2C(=O)N1C/C=C/Cn1ccc(=O)[nH]c1=O | >50 µM
Nc1ncnc2c1ncn2CC(CF)OCP(=O)(O)O | >100 µM
Cc1ccc(C)c(CSc2c(O)ccc[n+]2[O-])c1 | 65 µg/mL
NC/C=C/Cn1cc(C(F)(F)F)c(=O)[nH]c1=O | 50 µM

Repeating the first 2 entries:

smiles	result
CCCCCCCCCCCCCCCCCCNCc1c(O)cc2c(c1O)-c1cc(ccc1O)[C@H]1NC(=O)[C@@H]3NC(=O)[C@H]4NC(=O)[C@@H](Cc5ccc(c(Cl)c5)Oc5cc3cc(c5O)Oc3ccc(cc3Cl)[C@@H](O)[C@H](NC1=O)C(=O)N[C@@H]2C(=O)O)NC(=O)[C@H](N)c1ccc(O)c(c1)Oc1cc(O)cc4c1	22 µM
NC/C=C/Cn1cnc2c(N)ncnc21	3.1 µM